{"sequences": {"note": "Protein sequences, listed by entry. Tags and fused reporters are not part of them. Lines headed by an entry give the natural chain unless they say otherwise; changes in a name come on top.", "UniProt P26948": "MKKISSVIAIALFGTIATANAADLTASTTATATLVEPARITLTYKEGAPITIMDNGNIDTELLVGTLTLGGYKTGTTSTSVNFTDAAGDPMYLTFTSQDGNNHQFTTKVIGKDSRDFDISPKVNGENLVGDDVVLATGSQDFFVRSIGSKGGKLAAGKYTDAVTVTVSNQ"}, "source": "patent US7544773B2", "about": "(priority 2003, dated 2009)", "biological_target": "Caf1 (Yersinia pestis, UniProt P26948)", "conditions": "peptide 10^−4 to 10^−8 M, E. coli DH5α/pFMA", "data": [{"substance": "Ala-Thr-Ala-Thr-Leu-Val", "values": [{"measurement": "inhibition of expression of Caf1 on the surface of cells", "value": "clearly inhibits"}]}]}
